Each structure is given as a SMILES string. Where two headings read alike, the source gives them in different places.

The source of these data is patent US20090069418A1, “Compositions and Methods for the Treatment of Disorders Associated with Aberrant Vasodilation” (priority 2007, published 2009).

The data set deals with mice. It counts as in vivo. From the text: Male mice between the ages of 16-24 weeks were anesthetized with isoflurane (induction 4-5 vol %; maintenance 1-2 vol %), intubated with a 20G plastic IV catheter, and mechanically ventilated using a rodent ventilator (Inspira, volume-controlled, Harvard Apparatus, MA). ECG and rectal temperature were continuously monitored using a PC-based recording device (PowerLab 8/30, ADInstruments, Colorado Springs, Colo.). The animals were positioned in a right lateral decubital position on a heating pad and rectal temperature was maintained at 37° C. throughout the experiment. A PE-10 catheter was inserted into the left jugular vein for intravenous drug infusion. Using a dissecting microscope, a left-sided thoracotomy was performed in the 4th intercostal space. […] A ligature (8-0 Monosof MV-135-4, ⅜ 5 mm tapered needle, Syneture, Norwalk, Colo.) was placed around the left coronary artery (LCA) approximately 2 mm distal to the left atrial margin. The suture was fed through a short section of PE-10 tubing to form a snare to allow temporary occlusion. The LCA was occluded for 40 minutes; occlusion was confirmed by persistent ECG changes during occlusion and visual paling of the left ventricle (LV). After 40 minutes the snare was released and reperfusion was confirmed with visual hyperemia of the LV and return of the ECG changes. After 2 hours of reperfusion the LCA was re-occluded and fluorescent polymer microspheres (0.4% solution, diameter 1-10 μm; Duke Scientific Corporation, Palo Alto, Calif.) were infused via needle puncture of the LV apex. […] Heart was then excised, rinsed in normal saline, and the right and left atria were removed under the dissecting microscope. The remaining left and right ventricles were weighed and then sliced into seven sections (d=1 mm) for imaging and staining.
Heart sections were immediately photographed with a digital camera (Canon Powershot A620) under UV light for determination of AAR. Infarct size (I) was determined by staining the heart sections in 1% 2,3,5 triphenyltetrazolium chloride (TTC) in phosphate buffer at pH 7.4 for 10 minutes, followed by 10% neutral buffered formalin (NBF) bath overnight. Pictures were taken the next day under full spectrum light. TTC stained non-infarcted myocardium red, while infarcted myocardium remained white. Both AAR and I areas were calculated in a blinded fashion using standard imaging software (Photoshop Elements 4). A calibration ruler was present in each picture to convert pixels into volume. TTC slices were volume corrected for dehydration following formalin immersion.
The 14,15-EET was obtained from BIOMOL (Plymouth Meeting, Pa.). It was dissolved in a vehicle composed of 100% ethanol and saline (1:3), resulting in a final ethanol solution of 25%. […] SNC-162, a non-peptide δ-opioid receptor agonist, was used for comparison of the magnitude of cardioprotection found within the epoxide pathway. SNC-162 (0.1 μg/g iv over 10 minutes) was dissolved in 10% DMSO.

Where [1] appears, read: PRO (given prior to reperfusion).
The mark [2] stands for this setting: given prior to LCA occlusion (PRE).

For the compound `CCCCOC(=O)CCCCCCCCCCCNC(=O)NC12CC3CC(CC(C3)C1)C2` [AUDA-BE, 12-(3-adamantane-1-yl-ureido)-dodecanoic acid butyl ester], under setting [1], the AAR/Biventricular volume is on record as 34 ± 1%, the “Area At Risk” value is listed as 45 ± 3 mm^3, the “Biventricular Weight” value stood at 121 ± 9 mg and the “Body Weight” value turned out to be 26 ± 1 g. Besides, under setting [2], the AAR/Biventricular volume turned out to be 28 ± 2%, the “Area At Risk” value was 39 ± 3 mm^3, the “Biventricular Weight” value is given as 123 ± 3 mg and the “Body Weight” value worked out at 27 ± 1 g.

Turning to `CCCCCC1OC1C/C=C\C/C=C\C/C=C\CCCC(=O)O` (stereo not shown) [14,15-EET], under setting [1], the AAR/Biventricular volume is reported as 26 ± 4%, the “Area At Risk” value is reported as 33 ± 6 mm^3, the “Biventricular Weight” value was determined as 130 ± 5 mg and the “Body Weight” value is recorded as 27 ± 1 g. Under setting [2], the AAR/Biventricular volume was found to be 29 ± 1%, the “Area At Risk” value is reported as 36 ± 2 mm^3, the “Biventricular Weight” value came to 130 ± 4 mg and the “Body Weight” value is given as 27 ± 0 g.
